Measured values from several laboratories, pooled; numbers as filed in NIAID ChemDB.

All rows: tests in culture; agent: HIV-1

An empty or dashed field is not shown. ECn: concentration that inhibits the pathogen or its effect by n%. Rows are shuffled and stem from different studies.

compound | strain or isolate | cells | changes | method | endpoint | value
CN(C(=O)OCc1ccccc1)C1CCN(CCC(CN(C)S(=O)(=O)c2ccccc2)c2ccccc2)CC1 | YU-2 (M-tropic) | PBMC | - | p24 | EC95 | 12.5 µM
Cc1occc1C(=S)Nc1ccc(Cl)c(/C=N/OC(C)(C)C)c1 | IIIB | CEM | - | syncytia | EC50 | 0.013 µg/mL
CN1C(=O)CN=C(c2ccccc2)c2cc(Cl)ccc21 | SF162 | U1 | - | - | EC50 | 12 µM
Cc1ccc(NC(=O)CSc2nnc(C)n2-c2cccc3ccccc23)c(Cl)c1 | NL4-3 | HeLa + HeLa-JC53 | RT-K103N Y181C | luciferase | EC50 | 0.054 µM
OCCS | IIIB | CEM | - | cytopathic effect / MTT | EC50 | >100 µM
C[C@@H](CNC(=S)Nc1ccc(Br)cn1)C1CCCCC1 | IIIB | PBMC | - | p24 | EC50 | 0.001 µM
O=c1[nH]c(=O)n([C@H]2C=C[C@@H](CO)O2)cc1C#CCCCCO | IIIB | MT-4 | - | RT activity | EC50 | >100 µM
CC(C)=CCOc1cc(NC(=S)c2ccoc2C)ccc1Cl | IIIB | CEM | - | syncytia | EC50 | 0.001 µg/mL
Cc1cccc(Cc2cc(=O)[nH]c(OCC(C)C)n2)c1 | IIIB | MT-4 | - | cytopathic effect / MTT | EC50 | 1.8 µM
O=C1O[C@@](CCl)(c2ccc(F)cc2)c2ccccc21 | IIIB | TZM-bl | - | luciferase | EC50 | 1.7 µM
CCCN(C(=O)Nc1ccccc1)C1CCN(CCC(CN(C)S(=O)(=O)c2ccccc2)c2ccccc2)CC1 | YU-2 (M-tropic) | PBMC | - | p24 | EC95 | 6 µM
Cc1ccc([C@@]2(CCl)OC(=O)c3ccccc32)cc1 | IIIB | TZM-bl | - | luciferase | EC50 | 12 µM
Cc1ccc(-n2c(SCC(=O)Nc3ccc(C)cc3Br)n[nH]c2=O)cc1 | NL4-3 | HeLa + HeLa-JC53 | RT-K103N Y181C | luciferase | EC50 | >10 µM
C[C@H](CNC(=S)Nc1ccc(Cl)cn1)c1ccccc1 | NNRTI-resistant (RT Y181C K103N) A17V | PBMC | RT-Y181C K103N | p24 | EC50 | >100 µM
Nc1ccn([C@H]2CC[C@@H](CO)O2)c(=O)n1 | IIIB | CEM/dCK- + CEM | - | syncytia | EC50 | 20 µM
COC(=O)[C@H](C)NP(=O)(OC[C@@H]1C=C[C@H](n2cc(C)c(=O)[nH]c2=O)O1)Oc1ccccc1 | BaL | MM + M/M | - | antigen | EC50 | 0.008 µM
O=C(NCc1c(F)cccc1Cl)C(OCc1ccccc1F)C(O)C(O)[C@@H](OCc1ccccc1F)C(=O)N[C@H]1c2ccccc2CC1O | - | MT-4 | - | cytopathic effect / XTT | EC50 | 0.8 µM
CC1(C)CCC[C@]2(C)[C@@H](c3ccoc3)C(=O)[C@@H]3O[C@]312 | IIIB | CEM + CEM-SS | - | syncytia | EC50 | 15.4 µM
CCC(C)Oc1nc(Cc2cc(C)cc(C)c2)cc(=O)[nH]1 | IIIB | MT-4 | - | cytopathic effect / MTT | EC50 | 2.7 µM
O=C1O[C@](CCl)(c2ccccc2)c2ccccc21 | IIIB | TZM-bl | - | luciferase | EC50 | 15.4 µM
N#CCN1C(=O)N(Cc2ccccc2)S(=O)(=O)c2cscc21 | IIIB | CEM | RT-Y181C | syncytia | EC50 | >300 µM
O=C1c2c(O)c(=O)n(-c3ccc(N4CCOCC4)cc3)c(=O)n2CCN1Cc1ccc(F)cc1 | - | MT-4 | - | p24 | EC50 | <10 µM
Cc1cccc(Cc2nc(OC3CCCCC3)[nH]c(=O)c2C)c1 | IIIB | MT-4 | - | cytopathic effect / MTT | EC50 | 16.7 µM
CNC(=O)[C@@H](NC(=O)[C@H](OCc1ccc(-c2ccccn2)cc1)[C@H](O)[C@@H](O)[C@@H](OCc1ccc(-c2ccccn2)cc1)C(=O)N[C@H](C(=O)NC)C(C)C)C(C)C | - | MT-4 | - | cytopathic effect / XTT | EC50 | 0.4 µM
CC(=O)c1ccc(C)cc1NC(C(N)=O)c1c(Cl)cccc1Cl | IIIB | CEM | - | syncytia | EC50 | 0.005 µg/mL
CN(C[C@@H](CCN1CCC2(CC1)CC(=O)c1ccccc12)c1cccc(Cl)c1)S(=O)(=O)c1ccccc1 | YU-2 (M-tropic) | PBMC | - | p24 | EC50 | <1.5 µM
Cc1ccc2ccccc2c1-n1c(C)nnc1SCC(=O)Nc1ccccc1Br | NL4-3 | HeLa + HeLa-JC53 | RT-K103N Y181C | luciferase | EC50 | 0.065 µM
Cc1ccnc2c1NC(=O)c1cccnc1N2C1CC1 | - | MT-4 | RT-L74V Y181C | - | EC50 | <3 µM
Cc1cn([C@H]2CC[C@@H](CO)O2)c(=O)nc1N | IIIB Laboratory strain | ATH8 | - | cytopathic effect / trypan blue | EC50 | >100 µM
Nc1ccn([C@H]2CC[C@@H](CO)O2)c(=O)n1 | HXB2 WT | PBMC | - | p24 | EC50 | 0.06 µM
CN(C[C@@H](CCN1CCC2(CC1)CS(=O)c1ccccc12)c1ccc(Cl)c(Cl)c1)S(=O)(=O)c1ccccc1 | YU-2 (M-tropic) | PBMC | - | p24 | EC95 | 12.5 µM
CNc1cccc(CN2C(=O)N(Cc3cccc(NC)c3)[C@H](Cc3ccc4c(c3)CCO4)[C@H](O)[C@@H](O)[C@H]2Cc2ccc3c(c2)CCO3)c1 | RF | MT-2 | - | - | EC50 | <0.0616 µM
CCC(Br)C1(c2ccc(F)cc2)OC(=O)c2ccccc21 | IIIB | TZM-bl | - | luciferase | EC50 | 129 µM
Nc1nc2c(ncn2[C@H]2CO[C@@H](CO)O2)c(=O)[nH]1 | Site-directed mutant | MT-2 | RT-Q151M | cytopathic effect / XTT | EC50 | 21.1 µM
CN1CCN(C2(Cn3c(=O)c(O)c4n(c3=O)CCN(Cc3ccc(F)cc3)C4=O)CCCCC2)CC1 | - | MT-4 | - | p24 | EC95 | <10 µM
COC(=O)[C@H](C)NP(=O)(OC[C@H]1O[C@@H](n2cc(C)c(=O)[nH]c2=O)C[C@@H]1N=[N+]=[N-])Oc1ccccc1 | IIIB | CEM | - | syncytia | EC50 | 0.06 µM
Nc1nc(=O)n([C@H]2CC[C@@H](CO)O2)cc1F | IIIB Laboratory strain | ATH8 | - | cytopathic effect / trypan blue | EC50 | <0.5 µM
Cc1cn([C@H]2C[C@H](N=[N+]=[N-])[C@@H](CO)O2)c(=O)[nH]c1=O | BaL | MM + M/M | - | antigen | EC90 | 0.02 µM
O=c1[nH]cnc2c1ncn2[C@H]1CC[C@@H](CO)O1 | XM-T69SSS | MT-4 | RT-T69SSS L210W T215Y | p24 | EC90 | 8.8 µM
CC(C)=CCN1Cc2cc(Cl)cc3[nH]c(=S)n(c23)C[C@@H]1C | IIIB | CEM | - | syncytia | EC50 | 0.023 µg/mL
CCc1ccc(-n2c(C)nnc2SCC(=O)Nc2ccccc2Br)c2ccccc12 | NL4-3 | HeLa + HeLa-JC53 | RT-Y188L | luciferase | EC50 | 0.058 µM
CCC(NC(=S)Nc1ccc(C)cn1)c1ccccc1 | IIIB | PBMC | - | p24 | EC50 | 0.005 µM
Nc1ccn([C@H]2CC[C@@H](CO)O2)c(=O)n1 | BaL | MM + M/M | - | antigen | EC90 | 0.01 µM
O=C1c2c(O)c(=O)n(C3CCC3)c(=O)n2CCN1Cc1ccc(F)cc1 | - | MT-4 | - | p24 | EC95 | <10 µM
Cc1cn([C@H]2CC[C@@H](COP(=O)(O)O)O2)c(=O)[nH]c1=O | IIIB Laboratory strain | ATH8 | - | cytopathic effect / trypan blue | EC50 | >200 µM
CNC(=O)[C@@H](NC(=O)[C@H](OCc1ccc(F)cc1)[C@H](O)[C@@H](O)[C@@H](OCc1ccc(F)cc1)C(=O)N[C@H](C(=O)NC)C(C)C)C(C)C | - | MT-4 | - | cytopathic effect / XTT | EC50 | 5 µM
Nc1ncnc2c1ncn2CCOCP(=O)(O)O | - | MT-4 | - | antigen | EC50 | 1.6 µM
O=C(NCC#Cc1cn([C@H]2C=C[C@@H](CO)O2)c(=O)[nH]c1=O)C(F)(F)F | IIIB | MT-4 | - | RT activity | EC50 | >100 µM
O=C1N(Cc2ccccc2)[C@H](Cc2ccc3c(c2)OCCO3)[C@H](O)[C@@H](O)[C@@H](Cc2ccc3c(c2)OCCO3)N1Cc1ccccc1 | RF | MT-2 | - | - | EC50 | <0.112 µM
NCCS | IIIB | CEM | - | cytopathic effect / MTT | EC50 | <100 µM
O=C1N(CC2CC2)[C@H](Cc2ccc3c(c2)OCCO3)[C@H](O)[C@@H](O)[C@@H](Cc2ccc3c(c2)OCCO3)N1CC1CC1 | RF | MT-2 | - | - | EC50 | <0.928 µM
Cc1cc(C)cc(Cc2cc(=O)[nH]c(OC3CCCCC3)n2)c1 | IIIB | MT-4 | - | cytopathic effect / MTT | EC50 | 1.1 µM
CC(=O)c1cc(CN2C(=O)N(Cc3ccc(F)c(C(C)=O)c3)[C@H](Cc3ccc4c(c3)OCCO4)[C@H](O)[C@@H](O)[C@H]2Cc2ccc3c(c2)OCCO3)ccc1F | RF | MT-2 | - | - | EC50 | <0.084 µM
O=c1[nH]c(=O)n([C@H]2C=C[C@@H](CO)O2)cc1C#CCCCO | IIIB | MT-4 | - | RT activity | EC50 | >100 µM
Nc1ncn([C@H]2CC[C@@H](CO)O2)c(=O)n1 | IIIB Laboratory strain | ATH8 | - | cytopathic effect / trypan blue | EC50 | <10 µM
Cc1csc(NC(=S)N[C@H](C)c2ccccc2)n1 | NNRTI-resistant (RT Y181C K103N) A17V | PBMC | RT-Y181C K103N | p24 | EC50 | 0.196 µM
CCC(I)C1(c2ccc(F)cc2)OC(=O)c2ccccc21 | IIIB | TZM-bl | - | luciferase | EC50 | 126 µM
COC(=O)[C@H](C)NP(=O)(OC[C@@H]1O[C@H](n2ccc(N)nc2=O)CS1)Oc1ccccc1 | IIIB | CEM/dCK- + CEM | - | syncytia | EC50 | 65 µM
Cc1cccc(Cc2nc(OCC(C)C)[nH]c(=O)c2C)c1 | IIIB | MT-4 | - | cytopathic effect / MTT | EC50 | 4.6 µM
CN1C(=O)N(Cc2ccccc2)S(=O)(=O)c2cscc21 | IIIB | CEM | RT-K103N | syncytia | EC50 | >324 µM
COC(=O)c1ccc(NC(=O)CSc2nnc(C)n2-c2ccc(C)cc2)c(Cl)c1 | NL4-3 | HeLa + HeLa-JC53 | RT-K103N Y181C | luciferase | EC50 | 0.12 µM
Cc1ccnc2c1NC(=O)c1cccnc1N2C1CC1 | IIIB | CEM | RT-Y188H | syncytia | EC50 | >37 µM
CC(C)(C)OC(=O)C(C)(C)n1c(=O)c(O)c2n(c1=O)CCN(Cc1ccc(F)cc1)C2=O | - | MT-4 | - | p24 | EC50 | <10 µM
COc1nc(Cc2cc(C)cc(C)c2)cc(=O)[nH]1 | IIIB | MT-4 | - | cytopathic effect / MTT | EC50 | 34.4 µM
C[C@@H](CNC(=S)Nc1ccc(Cl)cn1)c1ccccc1 | NNRTI-resistant (RT Y181C) A17 | PBMC | RT-Y181C | p24 | EC50 | 0.26 µM
O=C1Nc2cscc2S(=O)(=O)N1Cc1ccccc1 | IIIB | MT-4 | - | cytopathic effect / MTT | EC50 | >78.8 µM
Cc1cn([C@H]2C=C[C@@H](CO)O2)c(=O)[nH]c1=O | Clinical isolate | MT-2 | K65R/Y181C/G190S | recombinant virus assay | EC50 | 0.672 µM
CN(C)C(=O)C(=O)N1CCOCC1Cn1c(=O)c(O)c2n(c1=O)CCN(Cc1ccc(F)cc1)C2=O | - | MT-4 | - | p24 | EC95 | <10 µM
Cc1cn([C@H]2C[C@H](N=[N+]=[N-])[C@@H](CO)O2)c(=O)[nH]c1=O | IIIB | CEM | - | syncytia | EC50 | 0.008 µM
CN1C(=O)N(c2cccc(Cl)c2)S(=O)(=O)c2cscc21 | IIIB | MT-4 | - | cytopathic effect / MTT | EC50 | >483.6 µM
C[C@@H](NC(=S)Nc1ccc(Br)cn1)c1cccc2ccccc12 | NNRTI-resistant (RT Y181C K103N) A17V | PBMC | RT-Y181C K103N | p24 | EC50 | 0.287 µM
O=C1c2c(O)c(=O)n(CCc3cn4ccccc4n3)c(=O)n2CCN1Cc1ccc(F)cc1 | - | MT-4 | - | p24 | EC95 | <10 µM
O=C1N(Cc2ccc3ccccc3c2)[C@H](Cc2ccccc2)[C@H](O)[C@@H](O)[C@@H](Cc2ccccc2)N1Cc1ccc2ccccc2c1 | RF | MT-2 | - | - | EC50 | <3.9 µM
O=C1Nc2cscc2S(=O)(=O)N1c1ccccc1Br | IIIB | MT-4 | - | cytopathic effect / MTT | EC50 | >695 µM
Nc1nc(=O)n([C@@H]2CS[C@H](CO)O2)cc1F | Clinical isolate | MT-2 | D67N/T69N/K70R/K103N/M184V/G190S/T215F/K219Q | recombinant virus assay | EC50 | >13.3 µM
O=C1N(Cc2ccccc2)c2cscc2S(=O)(=O)N1Cc1ccccc1 | IIIB | CEM | RT-L100I | syncytia | EC50 | ≥10 µM
COc1cc(C[C@@H]2[C@H](O)[C@@H](O)[C@@H](Cc3cc(OC)cc(OC)c3)N(Cc3cccc(C(C)=O)c3)C(=O)N2Cc2cccc(C(C)=O)c2)cc(OC)c1 | RF | MT-2 | - | - | EC50 | <0.0464 µM
O=C1c2c(O)c(=O)n(C34CC5CC(CC(O)(C5)C3)C4)c(=O)n2CCN1Cc1ccc(F)cc1 | - | MT-4 | - | p24 | EC95 | <10 µM
Cc1cccc(NC(=S)NC[C@H](C)c2ccccc2)n1 | NNRTI-resistant (RT Y181C K103N) A17V | PBMC | RT-Y181C K103N | p24 | EC50 | 1.19 µM
Cc1c(Sc2ccccc2)n(COCCO)c(=O)[nH]c1=O | IIIB | MT-4 | - | cytopathic effect / MTT | EC50 | 7 µM
CNC(=O)[C@@H](NC(=O)[C@H](OCc1cccc(F)c1)[C@H](O)[C@@H](O)[C@@H](OCc1cccc(F)c1)C(=O)N[C@H](C(=O)NC)C(C)C)C(C)C | - | MT-4 | - | cytopathic effect / XTT | EC50 | 0.8 µM
OO | BaL | PBMC | - | RT activity | EC50 | >10 µM
CCCN(C(=O)NCc1ccccc1)C1CCN(CCC(CN(C)S(=O)(=O)c2ccccc2)c2ccccc2)CC1 | YU-2 (M-tropic) | PBMC | - | p24 | EC50 | <3 µM
Cc1ccc(NC(=S)N[C@H](C)c2cccc3ccccc23)nc1 | NNRTI-resistant (RT Y181C K103N) A17V | PBMC | RT-Y181C K103N | p24 | EC50 | 0.543 µM
CCN1C(=O)N(Cc2ccccc2)S(=O)(=O)c2cscc21 | IIIB | CEM | - | syncytia | EC50 | 1.5 µM
C[C@@H](CNC(=S)Nc1ccc(Br)cn1)c1ccccc1 | NNRTI-resistant (RT Y181C) A17 | PBMC | RT-Y181C | p24 | EC50 | 0.67 µM
Nc1ncnc2c1ncn2[C@H]1CC[C@@H](COP(=O)(O)O)O1 | IIIB Laboratory strain | ATH8 | - | cytopathic effect / trypan blue | EC50 | <5 µM